Data as given in PubChem BioAssay AID1224833 (University of Georgia, 2016)
Aim: 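Human genes whose knock-down alters rotavirus replication in monkey cells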 (primary screen). Cells: monkey MA104 kidney cells. Knock-down reagent: siRNA pool against human genes, 50 nM. Timing: 48 h knock-down before infection; read 24 h after infection. Treatment: infection with rotavirus strain RV3 two days after transfection; infectious dose for this stage not given. Detection: 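Rotavirus antigen per well by fluorescent immunoassay, normalised to non-targeting control wells on each plate and given as a standard z-score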. Scale: z-score vs non-targeting control: higher = more rotavirus replication than with non-targeting control. Hit rule: In these data the active calls have z-score vs non-targeting control at about -1 or lower, or at about 1 or higher. Meaning of the calls: active = z-score beyond 1 either way; inactive = z-score within 1 of zero.
Shown is a random part of about 12,000 deposited reagents. About 5,600 of them (46%) count as active. 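Active calls cover z-scores past 1 in both directions, so they include lowered as well as raised rotavirus replication.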 Reagent sequences are not shown.

target	PubChem SID	z-score vs non-targeting control	Outcome
AP5M1	SID329579846	0.145	inactive
OSM	SID329574722	-0.596	inactive
WNT3	SID329575812	-0.946	inactive
FAM161A	SID329581528	-0.695	inactive
TMEM184B	SID329578185	-1.7	active
ZFAND3	SID329580495	-0.905	inactive
AP3M2	SID329577443	-0.227	inactive
SPEN	SID329577763	-0.567	inactive
CATSPERT	SID329583039	0.639	inactive
TAF1B	SID329576377	1.55	active
TAS2R45	SID329583780	-1.69	active
SLC13A5	SID329583868	0.84	inactive
NPM1	SID329574659	-1.08	active
NIFK	SID329581614	-0.937	inactive
CHGB	SID329573159	1.8	active
RGS22	SID329578337	-0.961	inactive
CLDN5	SID329575675	-1.33	active
ADAMTS7	SID329577582	0.507	inactive
SPRR1B	SID329575469	-0.263	inactive
SYPL2	SID329583903	0.0718	inactive
PAPPA2	SID329580490	-0.791	inactive
TMEM184A	SID329583451	-0.571	inactive
SLC25A31	SID329581389	-1.5	active
LRRC56	SID329582269	1.61	active
VSTM1	SID329583891	-0.487	inactive
KIF6	SID329583590	-0.854	inactive
RPUSD1	SID329582177	-1.25	active
FILIP1	SID329578508	0.787	inactive
DCAF5	SID329576302	-0.474	inactive
KATNAL2	SID329581396	-1.46	active
ACADS	SID329572666	-1.04	active
SNX14	SID329580213	-2.35	active
SMC1B	SID329578500	0.502	inactive
FOXP3	SID329578840	0.604	inactive
ANXA6	SID329572776	0.947	inactive
OR56A4	SID329582406	-1.95	active
TSPAN14	SID329581334	0.325	inactive
PRMT2IP	SID329580080	-2.38	active
MED6	SID329576911	-1.95	active
SFTPA2	SID329584731	-0.526	inactive
BCAT2	SID329572897	-0.903	inactive
BAG5	SID329576642	0.82	inactive
CYP4V2	SID329583933	1.07	active
LYAR	SID329579787	1.35	active
HECA	SID329579178	-0.254	inactive
CPLX3	SID329584670	-0.141	inactive
SPATA6L	SID329579546	-2.48	active
OR3A3	SID329576093	-2.37	active
STAR	SID329575505	1.14	active
ZNF536	SID329576767	-0.777	inactive
ALG14	SID329583391	1.41	active
PCDHA13	SID329579986	-0.504	inactive
TMA7	SID329579041	-0.335	inactive
BLNK	SID329578677	-0.872	inactive
POGLUT3	SID329582861	0.502	inactive
METAP1D	SID329583694	1.14	active
RIMBP2	SID329578022	-2.03	active
BOLL	SID329580783	0.624	inactive
PATL1	SID329583546	-1.56	active
GRAP2	SID329576578	0.164	inactive
NKAIN3	SID329583969	-1.24	active
PIN1	SID329574835	1.47	active
ZNF280C	SID329579767	-1.18	active
DACT2	SID329583288	-1.66	active
PRR4	SID329577626	0.121	inactive
VCY	SID329576414	1.32	active
TOP1	SID329575692	0.866	inactive
ALDH6A1	SID329574468	-1.35	active
TMEM100	SID329579672	1.39	active
NNAT	SID329574639	1.36	active
LAMA2	SID329574271	-3.36	active
MSH2	SID329574484	-1.46	active
ARHGAP28	SID329581028	0.0047	inactive
RPH3A	SID329577709	-0.8	inactive
GJB3	SID329573771	1.04	active
DYM	SID329579399	-2.25	active
RPS13	SID329575195	-0.094	inactive
MAGEA2B	SID329583794	-2.93	active
TPD52	SID329575699	0.518	inactive
IGHMBP2	SID329574123	-1.19	active
RASSF1	SID329577590	-2.48	active
MED16	SID329576925	2.05	active
LEMD1	SID329582107	-2.07	active
JCHAIN	SID329574124	1.77	active
ZBTB37	SID329581665	-1.18	active
FSCB	SID329581512	-0.512	inactive
ARHGAP35	SID329573862	-1.79	active
PPID	SID329574923	-1.15	active
TUBA1A	SID329575954	1.14	active
APOBEC3D	SID329582793	-1.33	active
RABGGTA	SID329575050	-1.08	active
OLFML2B	SID329578214	0.679	inactive
FOXO3	SID329573664	-2.1	active
SPATA7	SID329579883	-1	active
CENATAC	SID329584026	-0.631	inactive
HLA-F	SID329573976	-0.266	inactive
NPPB	SID329574661	-2.24	active
CCNYL1	SID329583036	1.25	active
TGM2	SID329575631	0.798	inactive
ST6GAL1	SID329575325	-1.16	active
FNBP1L	SID329579439	0.52	inactive
ARMC7	SID329580929	-4.66	active
OR51A2	SID329584505	-1.73	active
EIF2S3	SID329573506	-1.6	active
ZBBX	SID329580986	-0.472	inactive
AP1S1	SID329573170	-0.519	inactive
OVOL2	SID329580417	-0.193	inactive
GRAMD2A	SID329583371	-0.662	inactive
JTB	SID329577413	1.21	active
USP5	SID329575999	0.764	inactive

5 entries from above, set out differently:
| target | PubChem SID | z-score vs non-targeting control | Outcome |
| --- | --- | --- | --- |
| TUBA1A | SID329575954 | 1.14 | active |
| APOBEC3D | SID329582793 | -1.33 | active |
| RABGGTA | SID329575050 | -1.08 | active |
| OLFML2B | SID329578214 | 0.679 | inactive |
| FOXO3 | SID329573664 | -2.1 | active |
